{"source": "patent US5674835", "about": "“Papillomaviral expression inhibitors” (New England Medical Center Hospitals, Inc.)", "target": "T1, E2 protein from BPV-transformed C127 cells (ID14) nuclear fractions (Bovine papillomavirus type 1) (UniProt P03122)", "T1 sequence (looked up, limits assumed)": "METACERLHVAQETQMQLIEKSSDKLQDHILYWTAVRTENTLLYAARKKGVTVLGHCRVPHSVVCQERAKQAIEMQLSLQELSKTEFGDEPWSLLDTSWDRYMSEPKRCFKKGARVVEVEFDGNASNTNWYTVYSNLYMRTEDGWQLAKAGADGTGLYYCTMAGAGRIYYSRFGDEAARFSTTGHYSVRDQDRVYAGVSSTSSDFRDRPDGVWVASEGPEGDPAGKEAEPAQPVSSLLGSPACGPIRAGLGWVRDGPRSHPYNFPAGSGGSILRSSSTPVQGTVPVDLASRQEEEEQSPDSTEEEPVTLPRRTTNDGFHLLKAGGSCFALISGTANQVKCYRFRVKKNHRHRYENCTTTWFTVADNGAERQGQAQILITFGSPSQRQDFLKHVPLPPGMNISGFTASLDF", "assay": "competition with a labelled probe", "details": "blocked immunoprecipitation of 233 bp fragment; protein in an extract", "note": "At least one result comes from cells or an extract, where the contact may be indirect. Tags and fusion partners may be left off the protein sequences shown."}
{"sequence": "CGTCAAACCGTCTTCGGTGCTC (double strand) [23 bp URR fragment with E2 site IIIb]", "values": [{"measurement": "binding result", "result": "binds"}]}
